This data set has as its system YhaJ. Put plainly: EMSA. Conditions: YhaJ 0-1 uM, outcompeted by 100-fold unlabeled P1, EMSA: Roche DIG Gel Shift Kit 2nd Gen (buffer, salt and pH not stated), 30 min at 30 C, DIG probe diluted to 0.4 ng/ul, 6% DNA retardation gel, recombinant protein, residues 1-298, protein details: N-terminal 6xHis (pET-28b), label: DIG (ddUTP-11-DIG), probe letters rebuilt from the primers and the genome. A general note: A gel shift assay detects complexes by their altered migration in electrophoresis.

Turning to “CAAACAACCACCTTAAAATGTTATTATTCTCTTTTTTCTAATGTGTAAAATACATTATCATTAAATGTCAACAAAAAAATCATATATTTTTAAAATCCATTTAAAATCAATGATATAGAAGAAAATCATCTCGTTAACAAACGACTTTAATAATTGCATTTCCATTTAGTTAAGCGTTTCTCTTTATAAGATAGATCTCATTGCATAAACAAATAAAACAGAATAAAAACCAAGCTGAACCGTTTCACTATACTCTACTTAATTCGAGTTACAGGAAGGCGGCAAGCGAGTGAATCCCCAGGAGCTTACAT (double strand) [LEE1 P1 promoter probe]”, the binding result was “binds”.
